Results of unrelated studies side by side (data: NIAID ChemDB).

All rows: whole-cell or culture tests; organism: Mycobacterium tuberculosis

Two numbers with a dash give a range or band.

compound	mutations	dose	measure	read by	strain or isolate	result
CO[C@H]1/C=C/O[C@@]2(C)Oc3c(C)c(O)c4c(O)c(cc(OCC(=O)N5CCC(C)CC5)c4c3C2=O)NC(=O)/C(C)=C\C=C\[C@H](C)[C@H](O)[C@@H](C)[C@@H](O)[C@@H](C)[C@H](OC(C)=O)[C@@H]1C			MIC		H37Rv	0.37 µg/mL
Cc1cc(C)c2c(=O)c3c(oc2c1)OC(C)(CO)CC3c1ccccc1			MIC bound	BACTEC	H37Rv	>12.5 µg/mL
O=c1[nH]c2cc(F)c(F)cc2nc1CBr			EC50			>12.5 µg/mL
O=c1cc(-c2ccccc2)nc(Nc2nc3ccc([N+](=O)[O-])cc3[nH]2)[nH]1		6.25 µg/mL	inhibition	BACTEC	H37Rv	24%
CC(C)(C)c1cc(C(C)(C)C)c2oc(-c3ccc(F)c(Oc4ccccc4)c3)nc2c1		6.25 µg/mL	inhibition	BACTEC	H37Rv	<90%
O=C(CN1CCN(c2cc3c(cc2F)c(=O)c(C(=O)O)cn3C2CC2)CC1)c1ccco1		6.25 µg/mL	inhibition		H37Rv	103%
Clc1ccc(C2=NN=C3C(c4ccccc4)=Nc4ccccc4N3C2)cc1			MIC			>100 µg/mL
COc1cc2c(C)[n+](C)c3c4cc5c(cc4ccc3c2cc1OC)OCO5		12.5 µg/mL	inhibition	BACTEC	H37Rv	97%
CC(C)OC(=S)SSC(=S)NCCNC(=S)SSC(=S)OC(C)C		12.5 µg/mL	inhibition	BACTEC	H37Rv	100%
c1ccc(Cc2nnc3c(-c4ccccc4)nc4ccccc4n23)cc1			MIC			>100 µg/mL
CC(C)=CCC1C(=O)C(CC=C(C)C)(CC=C(C)C)C(O)C(C(=O)C(C)C)C1O			MIC		Isolate L	55.8 µg/mL
COc1ccc2cc1-c1cc(ccc1O)C[C@H]1c3cc4c(cc3CCN1C)Oc1c(OC)cc3c(c1O4)[C@@H](C2)N(C)CC3			MIC	resazurin	H37Rv-PAS-R ATCC 35821	3.1 µg/mL
COc1cc2c(c3c[n+](C)c4c5cc6c(cc5ccc4c13)OCO6)OCO2		12.5 µg/mL	inhibition	BACTEC	H37Rv	96%
CSC(=S)n1nc(-c2cccs2)c(N=Nc2ccc(Cl)cc2)c1C(F)(F)F			MIC	BACTEC	H37Rv	128 µg/mL
O=C(NNC(=O)c1ccncc1)c1ccncc1			MIC			1 µg/mL
C/C(=N\NC(=S)N(C)C)c1ccccn1.[Cu][Br]			MIC90		TF274	1.56 µM
O=C(O)c1cn(C2CC2)c2cc(N3CCN(C/C(=N/OCc4ccccc4)c4cccs4)CC3)c(F)cc2c1=O			MIC		H37Rv	>6.25 µg/mL
CCOC(=O)C12OC(=O)CC(NC1C(=O)OC(C)(C)C)C2O		12.5 µg/mL	inhibition	BACTEC	H37Rv	43%
O=C(NCC(=O)N1CCN(c2ccc(N3C[C@H](Cn4ccnn4)OC3=O)cc2F)CC1)c1cccnc1			MIC	visual reading	H37Rv	2 µM
CO[C@H]1/C=C/O[C@@]2(C)Oc3c(C)c(O)c4c(O)c(c(/C=N/N5CCN(C)CC5)c(O)c4c3C2=O)NC(=O)/C(C)=C\C=C\[C@H](C)[C@H](O)[C@@H](C)[C@@H](O)[C@@H](C)[C@H](OC(C)=O)[C@@H]1C			MIC		H37Rv	0.04 µg/mL
N#CC(C#N)=CNC(=S)c1ccncc1			MIC bound	resazurin	H37Rv	>6.25 µg/mL
O=C(N/N=C/c1c(Cl)cccc1Cl)c1cccnc1			MIC			1 µg/mL
CC(=O)N[C@H]1[C@H]([C@H](O)[C@H](O)CO)O[C@](O)(C(=O)O)C[C@@H]1O		12.8 µg/mL	inhibition	BACTEC	H37Rv	21%
CO[C@H]1/C=C/O[C@@]2(C)Oc3c(C)c(O)c4c(O)c(c(/C=N/OCCN5CCN(C)CC5)c(O)c4c3C2=O)NC(=O)/C(C)=C\C=C\[C@H](C)[C@H](O)[C@@H](C)[C@@H](O)[C@@H](C)[C@H](OC(C)=O)[C@@H]1C			MIC		H37Rv	5 µg/mL
COc1ccc2cc1-c1cc(ccc1O)C[C@H]1c3cc4c(cc3CCN1C)Oc1c(OC)cc3c(c1O4)[C@H](C2)N(C)CC3			MIC	resazurin	H37Rv	6.2 µg/mL
O=C(NCC(=O)N1CCN(c2ccc(N3C[C@H](Cn4ccnn4)OC3=O)cc2F)CC1)C1=CC=C([N+](=O)[O-])C1	Ofloxacin-resistant		MIC	broth dilution / visual reading	SRI 4000	0.03 µM
O=C(CN1CCN(c2cc3c(cc2F)c(=O)c(C(=O)O)cn3C2CC2)CC1)c1cccs1		6.25 µg/mL	inhibition		H37Rv	96%
CN(C)[C@H]1C(=O)C(C(=O)NCN2CCN(C(=N)N=C(N)N)CC2)=C(O)[C@]2(O)C(=O)C3=C(O)c4c(O)cccc4[C@](C)(O)[C@@H]3C[C@H]12			MIC	BACTEC	H37Rv	≥12.8 µg/mL
CO[C@H]1/C=C/O[C@@]2(C)Oc3c(C)c(O)c4c(O)c(c(/C=N/OC/C=C(\C)CCC=C(C)C)c(O)c4c3C2=O)NC(=O)/C(C)=C\C=C\[C@H](C)[C@H](O)[C@@H](C)[C@@H](O)[C@@H](C)[C@H](OC(C)=O)[C@@H]1C			MIC		H37Rv	5 µg/mL
Cc1cn(C[C@H]2CN(c3ccc(N4CCN(C(=O)CNC(=O)c5cc([N+](=O)[O-])cc([N+](=O)[O-])c5)CC4)c(F)c3)C(=O)O2)nn1			MIC	visual reading	H37Rv	≤0.1 µM
C[n+]1cc2c3c(ccc2c2ccc4cc5c(cc4c21)OCO5)OCO3			MIC	BACTEC	H37Rv	<12.5 µg/mL
CC(C)c1cccc(O)c(=O)c1		128 µg/mL	inhibition	BACTEC	H37Rv	100%
CO[C@H]1/C=C/O[C@@]2(C)Oc3c(C)c(O)c4c(O)c(cc(OCC(=O)N(Cc5ccccc5)Cc5ccccc5)c4c3C2=O)NC(=O)/C(C)=C\C=C\[C@H](C)[C@H](O)[C@@H](C)[C@@H](O)[C@@H](C)[C@H](OC(C)=O)[C@@H]1C			MIC		H37Rv	0.37 µg/mL
CO/N=C(/CN1CCN(c2cc3c(cc2F)c(=O)c(C(=O)O)cn3C2CC2)CC1)c1cccs1			MIC		H37Rv	6.25 µg/mL
CO[C@H]1/C=C/O[C@@]2(C)Oc3c(C)c(O)c4c(O)c(c(/C=N/N5CCN(C)CC5)c(O)c4c3C2=O)NC(=O)/C(C)=C\C=C\[C@H](C)[C@H](O)[C@@H](C)[C@@H](O)[C@@H](C)[C@H](OC(C)=O)[C@@H]1C			MIC		Isolate I	>2 µg/mL
Nc1nc(-c2ccccc2)nc2sc3c(c12)CCCC3			MIC bound	BACTEC	H37Rv	>12.5 µg/mL
O=C(O)/C=C/c1ccccc1			MIC		92-0492 (MDR)	50 µg/mL
COc1cc2c(c[n+](C)c3c4cc5c(cc4ccc23)OCO5)c(OC)c1OC		12.5 µg/mL	inhibition	BACTEC	H37Rv	89%
O=C(N/N=C/c1ccc(Cl)cc1Cl)c1ccncc1			MIC			0.1 µg/mL
COc1ccc(/C=C2\CSC/C(=C/c3ccc(OC)c(OC)c3OC)C2=O)c(OC)c1OC			MIC bound	BACTEC	H37Rv	>12.5 µg/mL
CCCCC(CCC)O/N=C/c1c2c(O)c3c(O)c(C)c4c(c3c1O)C(=O)[C@@](C)(O/C=C/[C@H](OC)[C@@H](C)[C@@H](OC(C)=O)[C@H](C)[C@H](O)[C@H](C)[C@@H](O)[C@@H](C)/C=C/C=C(/C)C(=O)N2)O4			MIC		H37Rv	2 µg/mL
C/C=N/NC(=O)c1ccncc1			MIC			0.1 µg/mL
CC(=O)NCC1CN(c2ccc(C(C)=O)cc2)C(=O)O1			MIC			1.25 µg/mL
CCN(CC)C(=O)COc1cc2c(O)c3c(O)c(C)c4c(c13)C(=O)[C@@](C)(O/C=C/[C@H](OC)[C@@H](C)[C@@H](OC(C)=O)[C@H](C)[C@H](O)[C@H](C)[C@@H](O)[C@@H](C)/C=C/C=C(/C)C(=O)N2)O4			MIC		H37Rv	0.075 µg/mL
O=C(N/N=C/c1ccc(Cl)cc1Cl)c1cccnc1			MIC			1 µg/mL
COc1ccc2c(c1)C(OC)C1c3c(cc4c(c3-2)OCO4)CCN1C.Cl			MIC bound	BACTEC	H37Rv	>12.5 µg/mL
NCC[C@H](O)C(=O)N[C@@H]1C[C@H](N)[C@@H](O[C@H]2O[C@H](CN)[C@@H](O)[C@H](O)[C@H]2O)[C@H](O)[C@H]1O[C@H]1O[C@H](CO)[C@@H](O)[C@H](N)[C@H]1O			MIC		H37Rv	0.5 µg/mL
CCCCOCCOCCO/N=C/c1c2c(O)c3c(O)c(C)c4c(c3c1O)C(=O)[C@@](C)(O/C=C/[C@H](OC)[C@@H](C)[C@@H](OC(C)=O)[C@H](C)[C@H](O)[C@H](C)[C@@H](O)[C@@H](C)/C=C/C=C(/C)C(=O)N2)O4			MIC		H37Rv	0.5 µg/mL
NNC(=O)c1ccncc1			MIC		Isolate L	>0.2 µg/mL
CCCCCCCCS(=O)(=O)CC(N)=O			MIC		6T2709	≤6.25 µg/mL
O=c1[nH]c2cc([N+](=O)[O-])ccc2nc1CBr			EC50			>12.5 µg/mL
CC(C)N=c1cc2n(-c3ccc(Cl)cc3)c3ccccc3nc-2cc1Nc1ccc(Cl)cc1			MIC	broth dilution / resazurin	MDR17	0.25 µg/mL
CN(c1ccc(C(N)=O)cc1)c1c(O)c2ccccc2[nH]c1=O			MIC bound	BACTEC	H37Rv	>12.5 µg/mL
O=C(O)c1cn(C2CC2)c2cc(N3CCN(C/C(=N/O)c4cccs4)CC3)c(F)cc2c1=O		6.25 µg/mL	inhibition		H37Rv	37%
COc1ccc2c(c[n+](C)c3c4cc5c(cc4ccc23)OCO5)c1OC		12.5 µg/mL	inhibition	BACTEC	H37Rv	99%
CCOC(=O)NNP(=O)(NNC(=O)OCC)c1ccccc1		12.5 µg/mL	inhibition	BACTEC	H37Rv	0%
NNC(=O)c1ccncc1			MIC		H37Rv	0.04 µg/mL
CC(C)(C)c1cc(C(C)(C)C)c2oc(-c3ccn[nH]3)nc2c1			MIC	BACTEC	H37Rv	>6.25 µg/mL
O=C(N/N=C/c1ccco1)c1ccncc1			MIC			0.1–10 µg/mL
O=c1[nH]c2ccc(C(F)(F)F)cc2nc1CBr			EC50			>12.5 µg/mL
CO[C@H]1/C=C/O[C@@]2(C)Oc3c(C)c(O)c4c(O)c(c(/C=N/N5CCN(C)CC5)c(O)c4c3C2=O)NC(=O)/C(C)=C\C=C\[C@H](C)[C@H](O)[C@@H](C)[C@@H](O)[C@@H](C)[C@H](OC(C)=O)[C@@H]1C			MIC		92-0492 (MDR)	>32 µg/mL
O=S(=O)(O)c1ccc(-c2nnc(-c3ccccn3)nc2-c2ccc(S(=O)(=O)O)o2)o1			MIC bound	resazurin	H37Rv	>6.25 µg/mL
CCCN(CCC)C(=O)COc1cc2c(O)c3c(O)c(C)c4c(c13)C(=O)[C@@](C)(O/C=C/[C@H](OC)[C@@H](C)[C@@H](OC(C)=O)[C@H](C)[C@H](O)[C@H](C)[C@@H](O)[C@@H](C)/C=C/C=C(/C)C(=O)N2)O4			MIC		H37Rv	0.18 µg/mL
CCOC(=O)C1=C(Nc2ccc(F)cc2)C(=O)N(C(C)(C)C)C1			MIC bound	BACTEC	H37Rv	>12.8 µg/mL
C/C(CCC(=O)O)=N\NC(=O)c1ccncc1			MIC			10 µg/mL
CC(C)(C)c1cc(C(C)(C)C)c2oc(-c3ccncc3)nc2c1			MIC	BACTEC	H37Rv	6.25 µg/mL
CC12CCC(C(NC(=S)S)C1=O)C2(C)C			MIC bound	BACTEC	H37Rv	≤128 µg/mL
COc1cccc(/C=N/NC(=O)c2cccnc2)c1O			MIC			<1 µg/mL
CCOC(=O)C/C(=N\Nc1nc2ccccc2nc1-c1ccccc1)c1ccccc1			MIC			100 µg/mL
O=C(CCSCCC(=O)N/N=C/c1ccc(F)cc1)N/N=C/c1ccc(F)cc1			MIC bound	BACTEC	H37Rv	>12.5 µg/mL
CN(C)c1ccc(-c2nc3cc(C(C)(C)C)cc(C(C)(C)C)c3o2)cc1		6.25 µg/mL	inhibition	BACTEC	H37Rv	54%
CCC1(C)NN=c2s/c(=C\c3ccc(OC)cc3)c(=O)n2N1			MIC bound	BACTEC	H37Rv	>12.5 µg/mL
c1cnc2c(c1)ccc1cccnc12			EC50		H37Rv	0.8 µg/mL
O=[N+]([O-])c1ccc(N=Nc2c(Cl)c(O)c3ccccc3c2O)nc1			MIC		H37Rv	>12.5 µg/mL
CC(C)N=c1cc2n(-c3ccc(Cl)cc3)c3ccccc3nc-2cc1Nc1ccc(Cl)cc1			MIC		H37Rv	0.1 µg/mL

The last 11 rows once more:

compound | mutations | dose | measure | read by | strain or isolate | result
C/C(CCC(=O)O)=N\NC(=O)c1ccncc1 |  |  | MIC |  |  | 10 µg/mL
CC(C)(C)c1cc(C(C)(C)C)c2oc(-c3ccncc3)nc2c1 |  |  | MIC | BACTEC | H37Rv | 6.25 µg/mL
CC12CCC(C(NC(=S)S)C1=O)C2(C)C |  |  | MIC bound | BACTEC | H37Rv | ≤128 µg/mL
COc1cccc(/C=N/NC(=O)c2cccnc2)c1O |  |  | MIC |  |  | <1 µg/mL
CCOC(=O)C/C(=N\Nc1nc2ccccc2nc1-c1ccccc1)c1ccccc1 |  |  | MIC |  |  | 100 µg/mL
O=C(CCSCCC(=O)N/N=C/c1ccc(F)cc1)N/N=C/c1ccc(F)cc1 |  |  | MIC bound | BACTEC | H37Rv | >12.5 µg/mL
CN(C)c1ccc(-c2nc3cc(C(C)(C)C)cc(C(C)(C)C)c3o2)cc1 |  | 6.25 µg/mL | inhibition | BACTEC | H37Rv | 54%
CCC1(C)NN=c2s/c(=C\c3ccc(OC)cc3)c(=O)n2N1 |  |  | MIC bound | BACTEC | H37Rv | >12.5 µg/mL
c1cnc2c(c1)ccc1cccnc12 |  |  | EC50 |  | H37Rv | 0.8 µg/mL
O=[N+]([O-])c1ccc(N=Nc2c(Cl)c(O)c3ccccc3c2O)nc1 |  |  | MIC |  | H37Rv | >12.5 µg/mL
CC(C)N=c1cc2n(-c3ccc(Cl)cc3)c3ccccc3nc-2cc1Nc1ccc(Cl)cc1 |  |  | MIC |  | H37Rv | 0.1 µg/mL

MIC bound comes from a single tested concentration. MIC50, MIC90 and the like: level of inhibition, or share of isolates inhibited. ECn: concentration that inhibits the pathogen or its effect by n%. Neighbouring rows are from separate reports. Percent inhibition refers to the dose given; in toxicity tests it is the harm to the cells. An empty or dashed field is not shown.